Measured values from several laboratories, pooled; numbers as filed in NIAID ChemDB.

All rows: whole-cell or culture tests; organism: Influenza A virus

Blank or dashed fields: not listed here. Conditions beyond the fields shown may differ between rows. a–b is a range or a potency band. ECn is the concentration giving n% inhibition of infection, replication or growth.

SMILES | measure | method | cells | strain | value
NC(=O)c1ncn([C@@H]2O[C@H](CO)[C@@H](O)[C@H]2O)c1O | EC50 | plaque count | MDCK | A/Ishikawa | 11.3 µg/mL
C[C@@H]1CCC[C@@H]2C[C@@H](NC(=O)c3cc(C(=O)c4ccccc4)ccc3O)CCN21 | EC50 | plaque count | MDBK | H1N1 A/WSN/33 | >20 µg/mL
Cc1nc(N2CCC[N+]3(CC2)CC[N+]2(CCCN(c4nc(C)nc5c4no[n+]5[O-])CC2)CC3)c2c(no[n+]2[O-])n1 | EC50 | cytopathic effect | MDCK | - | >70 µg/mL
N=C(N)c1ncn([C@@H]2O[C@H](CO)[C@@H](O)[C@H]2O)n1 | EC50 | neutral red | MDCK | Influenza A/Victoria/3/75 (H3N2) | 11 µg/mL
Cc1nc(N2CC[N+]3(CC2)CC[N+]2(CCN(c4nc(C)nc5c4no[n+]5[O-])CC2)CC3)c2c(no[n+]2[O-])n1 | EC50 | cytopathic effect | MDCK | - | >70 µg/mL
NC12CC3CC(CC(C3)C1)C2 | EC50 | plaque count | MDCK | A/HONG KONG/11/88 | <3 µM
C[N+]1(CC[N+]2(C)CCN(c3ncnc(Cl)c3[N+](=O)[O-])CC2)CCN(c2ncnc(Cl)c2[N+](=O)[O-])CC1 | EC50 | cytopathic effect | MDCK | - | >70 µg/mL
C[C@@H]1CCC[C@@H]2C[C@@H](NC(=O)c3cc(Cl)ccc3O)CCN21 | EC50 | plaque count | MDBK | H1N1 A/WSN/33 | 0.8 µg/mL
CC(N)C12CC3CC(CC(C3)C1)C2 | EC50 | plaque count | MDCK | - | 0.01 µg/mL
NC12CC3CC(CC(C3)C1)C2 | EC50 | plaque count | MDCK | H1N1 Yamagata/120/86 | 1.6 µg/mL
C[C@@H]1CCC[C@@H]2C[C@@H](NC(=O)c3ccccc3O)CCN21 | EC50 | plaque count | MDBK | H1N1 A/WSN/33 | 1.6–3.1 µg/mL
CC(=O)N[C@H]1[C@H]([C@H](O)[C@H](O)CO)OC(C(=O)O)=C[C@@H]1N=C(N)N | EC50 | - | MDCK | Influenza A/Mississippi/1/85 (H3N2) | 0.014 µM
O=c1[nH]cnc(N2CC[N+]3(CC2)CC[N+]2(CCN(c4nc[nH]c(=O)c4[N+](=O)[O-])CC2)CC3)c1[N+](=O)[O-] | EC50 | cytopathic effect | MDCK | - | >70 µg/mL
Cc1ccc(O)c(C(=O)N[C@H]2CCN3[C@H](CCC[C@H]3C)C2)c1 | EC50 | plaque count | MDBK | H1N1 A/WSN/33 | 0.2–0.3 µg/mL
C#Cc1c(C(N)=O)ncn1[C@@H]1O[C@H](CO)[C@@H](O)[C@H]1O | EC50 | plaque count | MDCK | A/Bangkok/10/83 (H1N1) | 0.4 µg/mL
NC12CC3CC(CC(C3)C1)C2 | EC50 | neutral red / visual reading | MDCK | Influenza A/Sydney/05/97 (H3N2) | 0.45 µM
Nc1[nH]n2c(=O)cc(CN3CC[N+]4(CC3)CC[N+]3(CCN(Cc5cc(=O)n6[nH]c(N)c([N+](=O)[O-])c6n5)CC3)CC4)nc2c1[N+](=O)[O-] | EC50 | cytopathic effect | MDCK | - | >70 µg/mL
CC(=O)N[C@H]1[C@H]([C@H](O)[C@H](O)CO)OC(C(=O)O)=C[C@@H]1N | EC50 | plaque count | MDCK | A/Brazil/11/78 (H1N1) | 8.5 µM
NC1CCCCCCC1 | MIC | - | - | A/University of Maryland/2/72 | 0.1 µg/mL
CC(N)C12CC3CC(CC(C3)C1)C2 | EC50 | plaque count | MDCK | Influenza A/Mississippi/1/85 (H3N2) | <0.27 µM
NC12CC3CC(CC(C3)C1)C2 | MIC | - | - | A/England/42/72 | 0.05 µg/mL
C[C@@H]1CCC[C@@H]2C[C@@H](NC(=O)c3cc(O)ccc3O)CCN21 | EC50 | plaque count | MDBK | H1N1 A/WSN/33 | >20 µg/mL
O=[N+]([O-])c1c(Cl)ncnc1N1CC[N+]2(CC1)CC[N+]1(CCN(c3ncnc(Cl)c3[N+](=O)[O-])CC1)CC2 | EC50 | cytopathic effect | MDCK | - | >70 µg/mL
C[C@@H]1CCC[C@@H]2C[C@@H](NC(=O)c3cc(N=[N+]=[N-])ccc3O)CCN21 | EC50 | plaque count | MDBK | H1N1 A/WSN/33 | 0.5 µg/mL
C[N+]1(C)CCN(c2cccc(N3CC[N+](C)(C)CC3)c2[N+](=O)[O-])CC1 | EC50 | cytopathic effect | MDCK | - | >70 µg/mL
NC12CC3CC(CC(C3)C1)C2 | EC50 | plaque count | MDCK | - | 0.08 µg/mL